PubChem BioAssay AID504761, Drosophila RNAi Screening Center – 2011
In all, the deposit lists about 22,000 reagents; shown is an unselected part of those that have a named target and a result. Over the whole deposit, 116 (0.52%) are marked active. 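Calls depend on retest data that are not deposited; infection was ranked per plate without normalising between plates; the unit of the infection score is not given.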 A plus sign joins genes that one reagent is predicted to hit. Not all columns of the deposit are shown. The record does not give: the amount of reagent, the time to read-out.

- Aim: 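Insect host genes that dengue virus relies on to spread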 (primary screen)
- Cells: D.Mel-2 cells from Drosophila
- Reagent: long dsRNA against Drosophila genes
- Treatment: infection with dengue virus type 2; dose and infection time not stated
- Detection: 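Cells stained for dengue envelope protein and imaged; percent of infected cells per well on duplicate plates, ranked by infection, with stained nuclei counted for cell number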
- Direction: infection score: higher = more virus-infected cells
- Hit rule: 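Low infection ranks in the two replicates (chance level up to 0.065) followed by a retest with a 1.5-fold or larger significant decrease, p below 0.05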
- Meaning of the calls: active = confirmed: knock-down lowers infection; inactive = not picked or not confirmed

Target gene	DRSC id	infection score, replicate 1	Outcome
Hey	DRSC23030	2.26	inactive
SWIP	DRSC19540	4.86	inactive
Sgt1	DRSC16519	2.78	inactive
Sgt1	DRSC29773	15.9	inactive
CG5160	DRSC02821	11.7	inactive
CG5160	DRSC28456	14.7	inactive
CG7798	DRSC07047	13.7	inactive
Nopp140	DRSC11872	7.39	inactive
Nopp140	DRSC24599	4.66	inactive
CG15635	DRSC00470	3.99	inactive
CG15635	DRSC22873	1.41	inactive
Dis3l2	DRSC08496	13.6	inactive
DIP-eta	DRSC02342	3.31	inactive
if	DRSC20341	12.1	inactive
CG30031 + deltaTry + gammaTry	DRSC07622	18.8	inactive
l(3)L1231	DRSC16323	8.64	inactive
ix	DRSC06325	5.06	inactive
ix	DRSC25236	4.83	inactive
CG8929	DRSC07298	9.82	inactive
CG8929	DRSC22847	2.94	inactive
dsh	DRSC19803	11.4	inactive
CG31098	DRSC14259	1.63	inactive
CG12811	DRSC14549	3.34	inactive

2 entries from above in another layout:
CG5160 [DRSC28456] → infection score, replicate 1 = 14.7; Outcome = inactive
CG7798 [DRSC07047] → infection score, replicate 1 = 13.7; Outcome = inactive
